Source: PubChem BioAssay AID504761 (Drosophila RNAi Screening Center, 2011)
The deposit covers about 22,000 reagents; this is a random part of those with a known target gene and a result. In the full data, 116 (0.52%) were called active. 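Calls depend on retest data that are not deposited; infection was ranked per plate without normalising between plates; the unit of the infection score is not given.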 A plus sign joins genes that one reagent is predicted to hit. Further read-outs or replicates are left out here. Not stated in the record: the amount of reagent, the time to read-out.

- Screen: 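Fly genes whose silencing reduces dengue virus type 2 infection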 (primary screen)
- Cell system: D.Mel-2 cells from Drosophila
- Knock-down reagent: long dsRNA against Drosophila genes
- Challenge: infection with dengue virus type 2; dose and infection time not stated
- Detection: 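Cells stained for dengue envelope protein and imaged; percent of infected cells per well on duplicate plates, ranked by infection, with stained nuclei counted for cell number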
- Reading the numbers: infection score: higher = more virus-infected cells
- Call rule: 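Very low infection ranking in both replicate wells (chance probability at most 0.065), then a retest showing infection dropped 1.5-fold or more at p below 0.05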
- Calls: active = confirmed: knock-down lowers infection; inactive = not picked or not confirmed

{"Gene": "rno (GeneID 38027)", "DRSC id": "DRSC08584", "infection score, replicate 1": 3.54, "activity call": "inactive"}
{"Gene": "CG17991 (GeneID 43279)", "DRSC id": "DRSC15294", "infection score, replicate 1": 11, "activity call": "inactive"}
{"Gene": "CG11696 (GeneID 32104)", "DRSC id": "DRSC19417", "infection score, replicate 1": 4.28, "activity call": "inactive"}
{"Gene": "CG32576 (GeneID 318095)", "DRSC id": "DRSC19136", "infection score, replicate 1": 3.1, "activity call": "inactive"}
{"Gene": "CG31268 (GeneID 318652)", "DRSC id": "DRSC13203", "infection score, replicate 1": 8.07, "activity call": "inactive"}
{"Gene": "CG34337 (GeneID 5740569)", "DRSC id": "DRSC18435", "infection score, replicate 1": 11.6, "activity call": "inactive"}
{"Gene": "CG42741 (GeneID 37654)", "DRSC id": "DRSC04593", "infection score, replicate 1": 7.52, "activity call": "inactive"}
{"Gene": "CG42741 (GeneID 37654)", "DRSC id": "DRSC22045", "infection score, replicate 1": 3.28, "activity call": "inactive"}
{"Gene": "CG42741 (GeneID 37654)", "DRSC id": "DRSC30003", "infection score, replicate 1": 9.77, "activity call": "inactive"}
{"Gene": "CG33251 (retired record) + CG9915", "DRSC id": "DRSC20217", "infection score, replicate 1": 13, "activity call": "inactive"}
{"Gene": "Muc30E (GeneID 2768931)", "DRSC id": "DRSC01101", "infection score, replicate 1": 1.42, "activity call": "active"}
{"Gene": "Muc30E (GeneID 2768931)", "DRSC id": "DRSC28881", "infection score, replicate 1": 2.41, "activity call": "inactive"}
{"Gene": "ey (GeneID 43812)", "DRSC id": "DRSC17173", "infection score, replicate 1": 9.27, "activity call": "inactive"}
{"Gene": "ey (GeneID 43812)", "DRSC id": "DRSC26309", "infection score, replicate 1": 7.16, "activity call": "inactive"}

Quoted from the listing, 2 entries:
{"Gene": "Muc30E (GeneID 2768931)", "DRSC id": "DRSC01101", "infection score, replicate 1": 1.42, "activity call": "active"}
{"Gene": "Muc30E (GeneID 2768931)", "DRSC id": "DRSC28881", "infection score, replicate 1": 2.41, "activity call": "inactive"}
